Test results: publication PMC8761896 (2021)

Tests used:
[1] = molecular target: eOD-GT6; assay: SPR
[2] = molecular target: eOD-GT6; assay: SPR; remark: listed apart in the source

B1: VRC01gl Fab with Q39LH (Fab, V domains shown)
VH: not shown
VL: EIVLTQSPATLSLSPGERATLSCRASQSVSSYLAWYQQKPGQAPRLLIYDASNRATGIPARFSGSGSGTDFTLTISSLEPEDFAVYYCQQYEFFGQGTKLEIK
- Kd [1]: 11.7 nM
- koff [2]: 0.000581 s⁻¹

B2: VRC01gl Fab with Q39LH and comL (Fab, V domains shown)
VH: not shown
VL: EIVLTQSPATLSLSPGERATLSCRASQSVSSYLAWYQQKPGQAPRLLIYDASNRATGIPARFSGSGSGTDFTLTISSLEPEDFAVYYCQQYEFFGQGTKVQVDI
- Kd [1]: 3.81 nM
- koff [2]: 0.000247 s⁻¹
